Experimental data from article PMC3207847, “Characterization of a Novel Type of HIV-1 Particle Assembly Inhibitor Using a Quantitative Luciferase-Vpr Packaging-Based Assay” (PLoS ONE, 2011).

Tested on: HIV-1 VLP assembly and budding
Experiment: Electron microscopy of AcMNPV-Gag-infected Sf9 cells and released particles
Assay type: cell-based
Conditions: 10 µg/ml for 24 h, m ± SD
Method: By contrast, control, untreated AcMNPV-Gag-infected Sf9 cells were decorated with VLP budding in abundance from the plasma membrane ( Fig. 8 , a; and also refer to [12], [28], [30], [32], [33], [53]).
Baculovirus-infected Sf9 cells were harvested at 48 h pi, pelleted, fixed with 2.5% glutaraldehyde in 0.1 M phosphate buffer, pH 7.5, post-fixed with osmium tetroxide (2% in H2O) and treated with 0.5% tannic acid solution in H2O. The specimens were dehydrated and embedded in Epon (Epon-812; Fulham, Latham, NY). Ultrathin sections were stained with 2.6% alkaline lead citrate and 0.5% uranyl acetate in 50% ethanol, and post-stained with 0.5% uranyl acetate solution in H2O [12], [28], [53]. Grids were examined under a Jeol JEM-1400 electron microscope, equiped with an ORIUS™ digitalized camera (Gatan France, 78113-Grandchamp). For statistical EM analyses, a minimum of 30 grid squares containing 10 to 20 cell sections each were examined for counting VLP budding at the cell surface, or budding in intracellular vesicular compartment.

SMILES: C=C(C)[C@@H]1CC[C@]2(C(=O)NCCN)CC[C@]3(C)C(CCC4[C@@]5(C)CC[C@H](OC(=O)CC(C)(C)C(=O)O)C(C)(C)C5CC[C@]43C)C12 (some centres unmarked) [EP-39, ethylene diamine-conjugated DSB]
- Mean diameter of morula-like particles (n = 14): 109.1±9.2 nm
- Mean diameter of bead-shaped subunits (nanoparticles) (n = 17): 19.4±3.2 nm
